Assay in all cases: pseudovirus neutralization IC50; higher = weaker neutralization
Test [1] concerns the target SARS-CoV-2 Omicron BA.1 spike pseudovirus. The method, then:
(§1)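 Single-round VSV luciferase pseudovirus mixed with antibody dilutions for 1 h and put on Huh-7 cells for about a day; IC50 from the dose curve.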

Test [2] concerns the target SARS-CoV-2 Omicron BA.2 spike pseudovirus. The method, then:
as §1

Test [3] has as its target SARS-CoV-2 Omicron BA.2.75 spike pseudovirus. The method, then: as §1
For test [4], the target named is SARS-CoV-2 Omicron BA.5 spike pseudovirus. The method, then:
as §1

Test [5] has as its target SARS-CoV-2 Omicron BQ.1.1 spike pseudovirus. The method, then:
as §1

The target of test [6] is SARS-CoV-2 Omicron XBB spike pseudovirus. The method, then:
as §1

In test [7] the target is SARS-CoV-2 early D614G spike pseudovirus. The method, then:
as §1

Human monoclonal antibodies against the spike receptor-binding domain (heavy:light variable regions). IC50 against pseudoviruses bearing the spike of naturally observed variants; lower = stronger; >10 µg/ml means not reached at the top dose. No active / inactive call. The stated detection limit is 0.0005 µg/ml; values near or below 0.001 µg/ml lie at the floor of the assay. Some results are limits rather than exact numbers.

B1: BD56-1233 (protein)
chain 1: EVQLVESGGGLVQPGGSLRLSCAASGFSFSTYNMNWVRQAPGKGLEWVSYISSSSTTIYYADSVEGRFTISRDNAKKSLYLQMNSLTAEDAGVYYCARHSGRQSHYYYGMDVWGQGTTVTVSS
chain 2: DIQMTQSPSSLSASVGDRVTITCRASQSIYSYLNWYQQKPGKAPSLLIYGASSLQSGVPSRFSGSGSGTDFTLSISGLRREDFATYYCQQSFSTPPTFGQGTTVEVK
As to B1, the “pseudovirus neutralization IC50” value in test [1], in test [2], in test [3], in test [4], in test [5] and in test [6] was above 10 mg/L in each case. For the same molecule, the “pseudovirus neutralization IC50” value in test [7] is above 10 mg/L.

B2: BD56-1211 (protein)
chain 1: QVRLVQSGAEVKKPGASVKVSCRASGYTFSNYYVHWVRQAPGQGLEWMGIINPSAGSITYAQKFQGRVTMTSDSSTSTVYLDLSSLRSEDTAVYYCARDIVLIPATSGLDVWGQGTTVTVSS
chain 2: EIVLTQSPATLSLSPGERATLSCRASQSISTYLAWYQQKPGQAPRLLIYDASNRATGIPARFSGSGSGTDFTLTISSLEPDDFAVYYCQQRSNWPRIFTFGPGTKVDIK
For the molecule B2, the “pseudovirus neutralization IC50” value is 1.25 mg/L in test [1]; above 10 mg/L in test [2]; above 10 mg/L in test [3]; above 10 mg/L in test [4]; above 10 mg/L in test [5]; above 10 mg/L in test [6]. For the same molecule, in test [7], the “pseudovirus neutralization IC50” value was above 10 mg/L.

B3: BD56-1232 (protein)
chain 1: QVQLVQSGAEVRKPGASVKVSCRASGYAFTNYYIHWVRQAPGQGLEWMGMINPDAGSTSYAQKFQGRVTMTGDSSTSTVYMELSSLRSEDTAVYYCARDIVLIPAASGVDVWGQGTTVTVSS
chain 2: EIVLTQSPATLSLSPGERATLSCRASQSVSSYLAWYQHKPGQAPRLLIYDASNRATGIPARFSGSGSGTDFTLTISSLEPEDFAVYYCQQRSNWPRIFTFGPGTKVDIK
As to B3, the “pseudovirus neutralization IC50” value in test [1], in test [2], in test [3], in test [4], in test [5] and in test [6] was above 10 mg/L each time. Besides, in test [7], the “pseudovirus neutralization IC50” value was above 10 mg/L.

B4: BD56-1225 (protein)
chain 1: QVQLVQSGAEVKKPGASVKVSCKASGYTFSMYYIHWVRQAPGQGLEWLGIINPDAGSTSYAQQFQGRVTMTRDTSTSAVYMELRNLRSEDSAVYYCARPAAGIPAARSAFDFWGQGTMVTVSS
chain 2: DIQMTQSPSTLSASVGDRVTITCRASQTISSWLAWYQQKPGKAPKLLIYKASTLESGVPSRFTGSGSGTEFSLTISSLQPDDFATYYCQQYNTYSWTFGQGTRVEIK
B4: the “pseudovirus neutralization IC50” value came out at 3.85 mg/L in test [1]; 3.93 mg/L in test [2]; 3.1 mg/L in test [3]; 3.13 mg/L in test [4]; 3.21 mg/L in test [5]; 3.25 mg/L in test [6]. In test [7], the “pseudovirus neutralization IC50” value is above 10 mg/L.

B5: BD56-1222 (protein)
chain 1: EVQVVESGGRLVKPGGSLRLSCAASGFNFRTYNMNWLRQAPGKGLEWVSSIGATGSYRNYADSVRGRFTISRDNAKNSLYLQMNRLRADDTAVYFCARDSDWGGDILTGSSHIFDNWGQGTVVTVSS
chain 2: DIQMTQSPSSLSASVGDRVTITCRASQTISSSLNWYHQKPGRAPKLLIYGAISLQSGVPSRFSGSGSGTDFTLTISSLQLEDFATYYCQQSYSAPPTFGGGTKVEIE
In the case of B5, the “pseudovirus neutralization IC50” value in test [1], in test [2], in test [3], in test [4], in test [5] and in test [6] was above 10 mg/L in each case. Also, the “pseudovirus neutralization IC50” value in test [7] was above 10 mg/L.

B6: BD58-0580 (protein)
chain 1: QVQLQESGPGLVKPSETLSLTCTVSGGSISSYYWSWIRQPPGKGLEWIGYIYYTGNTNYNPSLKSRVTISVDTSKNQFSLMLNSVTAADTAVYYCARAAPPDSYYYYYYMDVWGKGTTVTVSS
chain 2: QSALTQPASVSGSPGQSITISCTGTSSDVGSYNLVSWYQQHPGTAPKLMIYEVTKRPSGVSDRFFGSKSGNTASLTIFGLQAEDEADYYCCSYVGSNTLVFGGGTKLTVL
B6: the “pseudovirus neutralization IC50” value in test [1], in test [2], in test [3], in test [4], in test [5] and in test [6] was above 10 mg/L each time. Also, the “pseudovirus neutralization IC50” value in test [7] is above 10 mg/L.

B7: BD56-1234 (protein)
chain 1: QVQLVESGGGVVQPGRSLRLSCAASGFTFRNYGIHWFRQAPGKGLEWVAIIWYDGSNKYYAASVKGRFTISRDNSQNTVYLQMNSLRAGDTAVYYCARGYSSHDILTGEEDAFDLWGQGTMVTVSS
chain 2: QSVLTQPPSVSAAPGQKVTISCSGSRSNIGNHYVSWYQQLPGTAPKLLIYDNTERPSGIPDRFSASKSATSATLGITGLQTGDEADYYCGTWDTSLGAVVFGGGTKLTVL
On to B7, for which the “pseudovirus neutralization IC50” value in test [1] is 2.17 mg/L; in test [2] it was 2.14 mg/L; in test [3] it was 1.58 mg/L; in test [4], 2.49 mg/L; in test [5], 2.81 mg/L; in test [6] it was 2.5 mg/L. Further, the “pseudovirus neutralization IC50” value in test [7] was 1.88 mg/L.

B8: BD56-1228 (protein)
chain 1: QVQLVQSGAEVKKPGASVKVSCKASGYTFTNYYMHWVRQAPGQGLEWMGIINPSAGSTTYAQRFQGRVTMTSDTSTGTVYMELSRLRSDDTAVYFCARDGAFLPALDAFDIWGQGTMVTVSS
chain 2: DIVLTQSPGTLSLSPGERATLSCRASESISRSYLAWYQQKVGQAPRLLIYAASSRATGIPDRYTGSGSGTDFTLTISRLEPEDFAVYYCQQYGRSFAYTFGQGTKLEIK
On to B8, for which the “pseudovirus neutralization IC50” value in test [1], in test [2], in test [3], in test [4], in test [5] and in test [6] was above 10 mg/L each time. Also, in test [7], the “pseudovirus neutralization IC50” value is above 10 mg/L.

B9: BD56-1180 (protein)
chain 1: EVQLVQSGAEVKKPGESLKISCKGSGYSFIIYWIGWVRQMPGQGLEYMGIIYPGDSDTRYSPSFQGQVTISADKSISTAYLQWSSLKASDTAIYYCARGGYYDTFDIWGQGTMVTVSS
chain 2: DIVMTQSPATLSVSPGERATLSCRASQSISSDLAWYQQKPGQAPRLLIYHASTRATGIPARFSGSGSGTEFTLTISSLQSEDSAVYYCQQYNNWPLFGGGTKVEIK
In the case of B9, the “pseudovirus neutralization IC50” value in test [1] was 0.000717 mg/L; in test [2], 0.0013 mg/L; in test [3] it was 0.00161 mg/L; in test [4] it was 0.000938 mg/L; in test [5] it was 1.98 mg/L; in test [6] it was 1.82 mg/L. In test [7], the “pseudovirus neutralization IC50” value worked out at 1.9 mg/L.

B10: BD58-0577 (protein)
chain 1: QMQLQESGPGLVKPSQTLSLTCTVSGASISSANYYWNWIRQPAGKGLEWIGRIYIYASGSSNYSPSLKSRVSISVDTSKKQFSLKLSSVSAADTAVYYCATSPRDDFWRFDHWGHGTLVTVSS
chain 2: NFMLTQPHSVSGSPGKTLTISCTRSGGSIATNYVQWYQQRPGSSPTTVIYDNNQRPSGVPDRFSGSIDSSSNSASLTISGLKTEDEADYHCQSFALNNVIFGGGTKLTVL
B10: the “pseudovirus neutralization IC50” value in test [1], in test [2], in test [3], in test [4], in test [5] and in test [6] was above 10 mg/L each time. In addition, the “pseudovirus neutralization IC50” value in test [7] is above 10 mg/L.

B11: BD58-0584 (protein)
chain 1: QVQLLESGGGVVQPGKSLRLSCAASGFTFRTYGMHWVRQAPGKGLEWLALISYHGGNEYYADSVKGRITISRDNAKNTLYLQINSLRPEDTAVYYCAKGSYYYDSSGQYVDGFEYWGPGTLVIVSS
chain 2: DIQMTQSPSSLSASVGDRVTITCRASQSIGTYLNWFQQRPGKAPKLLIYGASSLQSGVPSTFSGGGSGTDFTLTISSLQPEDFATYYCQQSYSTPLTFGGGTKVEIK
With B11, the “pseudovirus neutralization IC50” value in test [1], in test [2], in test [3], in test [4], in test [5] and in test [6] was above 10 mg/L in each case. Moreover, the “pseudovirus neutralization IC50” value in test [7] was above 10 mg/L.

B12: CV07-315 (protein)
chain 1: EVQLVESGGGLVQPGRSLRLSCAASGFTFDDYAMHWVRQAPGKGLEWVSGISWNSGSIGYADSVKGRFTISRDNAKNSLYLQMNSLRAEDTALYYCAKDFLWDLHPPRYYGMDVWGQGTTVTVSS
chain 2: QSVLTRPPSVSAAPGQKVTISCSGSSSNIGNNYVSWYQQLPGTAPKLLIYENNKRPSGIPDRFSGSKSGTSATLGITGLQTGDEADYYCGTWDSSLNGVFGGGTKLTVL
Consider B12, for which the “pseudovirus neutralization IC50” value in test [1], in test [2], in test [3], in test [4], in test [5] and in test [6] was above 10 mg/L each time. Moreover, the “pseudovirus neutralization IC50” value in test [7] came to 0.408 mg/L.

The values are drawn from the supplement of paper PMC9931576.
